In patent publication US20090299044A1:

How the values were obtained:
[1] = biological target: human Kv1.3 channel (human) (UniProt P22001); experiment: cell-based or functional assay
[2] = biological target: human Kv1.1 channel (human) (UniProt Q09470); experiment: cell-based or functional assay

## Fc-L10-OSK1[K7S] (Fc fusion)
[1]
  fold change in potency (Kv1.3 current block) against Fc-L10-OSK1: 2 fold
  fold loss of potency (Kv1.3 current block) against synthetic OSK1 toxin peptide: 10 fold
[2]
  hKv1.1: IC50 (whole cell patch clamp, block of K+ current): 100 nM
